# “Also recorded” adds a separate entry of the source.
# How the values were obtained:
# [1] = Iontophoresis of methylene blue across cortical bone discs or squares; design: species or system sheep
# [2] = Tubular bone allograft model, methylene blue iontophoresis, sheep tibia
# [3] = Simultaneous iontophoresis of gentamicin and flucloxacillin in opposite directions across sheep tibia; details: gentamicin 1% in medullary canal with anode, flucloxacillin 1% in beaker with cathode, 5 minutes
# [4] = Antibiotic iontophoresis in sheep tibia, antibiotic concentration in bone samples; details: for movement of ions through sheep cortex: 1% solution
# Description: Quantitative analysis was then carried out to test iontophoresis as a means of antibiotic delivery in allograft bone. Specimens of sheep tibia were prepared as described above. […] A potential difference of 100 volts was applied for 1 minute, 5 minutes or 10 minutes with controls being set up the same way for 10 minutes except no potential difference was applied. A recording of current passed for each specimen was made.
# Each sample was then washed in water and dried. Samples from 10 the endosteal and periosteal surfaces were then taken by drilling the bone using a 3 mm low speed drill, in 10 positions on each surface, and crushed to a fine powder. To a known mass of each sample was added distilled water (2 ml) and the sample agitated using ultrasound. The sample was then centrifuged and the supernatant removed and the process repeated a further 2 times. The last wash was left to soak for 12 hours before centrifuging. The Fucloxacillin specimens were refrigerated to 4° C. during this to minimise degradation by hydrolysis. The supernatant solutions were then analysed for antibiotic content; for gentamicin using Fluorescence Polarisation Immuno Assay (Abbot Axsym Analyser); and for flucloxacillin the assays were performed using High Performance Liquid Chromatography (HPLC) technique. From the levels in the supernatant solutions, the antibiotic concentrations in the bone samples were calculated.
# Initial work was carried out using the sheep tibia model of allograft tubular bone. For each control and iontophoretic group, 5 specimens were used. Samples from the endosteal and periosteal surfaces were processed separately.
# [5] = Control, no potential difference
# [6] = iontophoresis, typical current 40 mamp
# [7] = potential difference applied 1 Minute
# [8] = potential difference applied 2 Minutes
# [9] = potential difference applied 5 Minutes
Molecule,"penetration of the blue colour ([1]; control, no potential difference, methylene blue applied to one surface of cortical bone disc, after 20 minutes)",migration of methylene blue ([1]; potential difference applied),"Macroscopic penetration [2, 5]","Microscopic staining [2, 5]","time at which blue coloration of the periosteal surface was maximal [2, 6] [min]","time at which blue coloration of the periosteal surface was noted [2, 6]","Macroscopic penetration [2, 7]","Microscopic staining [2, 7]","Macroscopic penetration [2, 8]","Microscopic staining [2, 8]","Macroscopic penetration [2, 9]","Microscopic staining [2, 9]",penetration of the cortex [3],movement of ions through sheep cortex ([4]; 100 volts),time of iontophoresis after which high concentrations are achieved ([4]; sheep tibia) [min],"time to peak level, endosteal specimens ([4]; 100 volts, sheep tibia) [min]","time to peak level, periosteal samples ([4]; 100 volts, sheep tibia) [min]"
CN(C)c1ccc2nc3ccc(=[N+](C)C)cc-3sc2c1 [methylene blue],very minimal penetration,migrate through the cortices,Minimal Penetration (Staining of,Staining on endosteal,≤ 5,approximately 1.5 minutes,Penetration 1.5 mm,Uniform staining of matrix to,Penetration 3 mm,Uniform staining of matrix to,Penetration full thickness of,Complete uniform,,,,,
"Cc1onc(-c2c(F)cccc2Cl)c1C(=O)N[C@@H]1C(=O)N2[C@@H]1SC(C)(C)[C@@H]2C(=O)O [flucloxacillin, flucloxacillin Sodium]",,,,,,,,,,,,,levels in the periosteal samples only are elevated; also recorded: penetrates only the periosteal side,moved through sheep cortex by the iontophoretic gradient,1,,
gentamicin Sulphate,,,,,,,,,,,,,penetrates the full thickness of the cortex; also recorded: moves full thickness,moved through sheep cortex by the iontophoretic gradient,1,≤ 1,5

# From patent US6602296B1, “Chemical supplementation of bone” (The University of Western Australia, priority 1997, dated 2003)
